Data taken from patent US20250295657A1, “Methods and Compositions for Treatment of Inflammation and Inflammatory Conditions” (University of Pittsburgh - Of the Commonwealth System of …, priority 2022, published 2025).

System: D614G spike pseudotyped virus
Experiment: D614G spike pseudotyped virus infection in iPSCs transfected with the human ACE2 receptor

Compound | D614G spike pseudotyped virus infection (5 μM) | D614G spike pseudotyped virus infection (2 μM)
O=C(NCc1cc(=O)oc2cc(O)c(O)cc12)c1nn(-c2ccccc2)c(=O)c2ccccc12 [958ami] | decreased | –
O=C(OCc1cc(=O)oc2cc(O)c(O)cc12)c1nn(-c2ccccc2)c(=O)c2ccccc12 [compound 958] | – | decreased
